Results of unrelated studies side by side (data: NIAID ChemDB).

Shared fields: growth or infection tests; organism: Rhinovirus; measure: EC50

ECn is the concentration giving n% inhibition of infection, replication or growth.

Fc1cccc(Cn2cnc3c(Nc4cccc(F)c4)nc(C(F)(F)F)nc32)c1 ; strain or isolate: Serotype 21 ; cells: M-HELA ; read by: plaque count ; result: 50 µM
CSc1nc2ccc(OCCC3CCN(c4ccc(C)nn4)CC3)cc2o1 ; strain or isolate: Serotype 2 ; cells: MRC-5 ; read by: cytopathic effect ; result: 0.099 µg/mL
Cc1cc(CCCOc2c(C)cc(-c3noc(C(F)(F)F)n3)cc2C)on1 ; strain or isolate: Isolate 2 ; cells: OHIO HELA-I ; read by: cytopathic effect / visual reading ; result: 0.02 µg/mL
CCCNc1nc2ccc(OCCC3CCN(c4ccc(C)nn4)CC3)cc2s1 ; strain or isolate: Serotype 2 ; cells: MRC-5 ; read by: cytopathic effect ; result: 0.131 µg/mL
CCOC(=O)c1ccc(OCCC2CCN(c3ccc(C)nn3)CC2)cc1 ; strain or isolate: Serotype 85 (group B) ; cells: HELA-OHIO ; read by: cytopathic effect ; result: 0.005 µM
CCOc1noc2cc(OCCC3CCN(c4ccc(C)nn4)CC3)ccc12 ; strain or isolate: Serotype 14 ; cells: MRC-5 ; read by: cytopathic effect ; result: 0.005 µg/mL
CCn1c2c(c(=O)c3cc(C(C)C)ccc31)Cc1ccccc1-2 ; strain or isolate: TYPE 2/ HGP ; cells: HELA-OHIO ; read by: cytopathic effect ; result: 0.54 µg/mL
CCOc1nc2ccc(OCCC3CCN(c4ccc(C)nn4)CC3)cc2o1 ; strain or isolate: Serotype 2 ; cells: MRC-5 ; read by: cytopathic effect ; result: 0.003 µg/mL
Cc1ccc(Cn2cnc3c(N(C)C)nc(C(F)(F)F)nc32)c(C)c1 ; strain or isolate: Serotype 3 ; cells: M-HELA ; read by: plaque count ; result: >8 µM
COc1ccc(-c2snc(SC)c2C#N)cc1 ; strain or isolate: Serotype 9 (group B) ; cells: HELA-OHIO ; read by: cytopathic effect ; result: >12 µM
CCOc1ncnc2cc(OCCC3CCN(c4ccc(C)nn4)CC3)ccc12 ; strain or isolate: Serotype 2 ; cells: MRC-5 ; read by: cytopathic effect ; result: 0.027 µg/mL
COCc1cc(CCCOc2c(Cl)cc(-c3noc(C)n3)cc2Cl)on1 ; strain or isolate: Serotype 14 ; cells: HeLa ; read by: cytopathic effect ; result: 0.036 µg/mL
CN(C)c1nc(C(F)(F)F)nc2c1ncn2Cc1cccc(F)c1 ; strain or isolate: Serotype 1B ; cells: M-HELA ; read by: plaque count ; result: 0.03 µM
CSc1nsc(-c2ccc(OCc3ccccc3)cc2)c1C#N ; strain or isolate: Serotype 15 (group B) ; cells: HELA-OHIO ; read by: cytopathic effect ; result: 3 µM
CN(C)c1nc(C(F)(F)F)nc2c1ncn2Cc1ccc(Cl)c(N)c1 ; strain or isolate: Serotype 1B ; cells: M-HELA ; read by: plaque count ; result: 0.19 µM
CCc1nc(-c2cc(C)c(OCCCc3cc(COC)no3)c(C)c2)no1 ; strain or isolate: Serotype 1A ; cells: HeLa ; read by: cytopathic effect ; result: 0.077 µg/mL
Cc1c(-c2ccccc2)n(-c2ccc(F)cc2)c2ccc(C(C)C)cc2c1=O ; strain or isolate: 14/1059 ; cells: HELA-OHIO ; read by: cytopathic effect ; result: >2 µg/mL
COc1nc2ccc(OCCC3CCN(c4ccc(C)nn4)CC3)cc2o1 ; strain or isolate: Serotype 2 ; cells: MRC-5 ; read by: cytopathic effect ; result: 0.159 µg/mL
CSc1nsc(-c2ccc(OCCCCOc3ccccc3)cc2)c1C#N ; strain or isolate: Serotype 45 (group A) ; cells: HELA-OHIO ; read by: cytopathic effect ; result: >20 µM
Cc1cc(Cl)ccc1Cn1cnc2c(N(C)C)nc(C(F)(F)F)nc21 ; strain or isolate: Serotype 5 ; cells: M-HELA ; read by: plaque count ; result: >8 µM
CSc1nsc(-c2ccc(OS(=O)(=O)c3ccc(C)cc3)cc2)c1C#N ; strain or isolate: Serotype 42 (group A) ; cells: HELA-OHIO ; read by: cytopathic effect ; result: >25 µM
CN(C)c1nc(C(F)(F)F)nc2c1ncn2Cc1ccc([N+](=O)[O-])cc1 ; strain or isolate: Serotype 15 ; cells: M-HELA ; read by: plaque count ; result: >8 µM
CCOC(=O)c1ccc(OCCC2CCN(c3ccc(C)nn3)CC2)cc1 ; strain or isolate: 6360-CV41 (ICAM-1 receptor group 63) ; cells: KB ; read by: neutral red ; result: 0.027 µM
CSc1nsc(-c2ccc(OCCCOc3ccccc3)cc2)c1C#N ; strain or isolate: Serotype 70 (group A) ; cells: HELA-OHIO ; read by: cytopathic effect ; result: >20 µM
Cc1cc(CCCCCOc2c(Cl)cc(C3=NCCO3)cc2Cl)on1 ; strain or isolate: TYPE 47 ; cells: HeLa ; read by: plaque count ; result: 0.048 µg/mL
CCOC(=O)c1ccc(OCCC2CCN(c3ccc(C)nn3)CC2)cc1 ; strain or isolate: Serotype 16 ; cells: WI-38 ; read by: cytopathic effect ; result: <0.1 µg/mL
CSc1nsc(-c2ccc(O)cc2)c1C#N ; strain or isolate: Serotype 63 (group B) ; cells: HELA-OHIO ; read by: cytopathic effect ; result: >10 µM
CN(C)c1nc(C(F)(F)F)nc2c1ncn2Cc1ccc(Cl)cc1Cl ; strain or isolate: Serotype 4 ; cells: M-HELA ; read by: plaque count ; result: >8 µM
Cc1c(-c2ccccc2)n(-c2cccc(F)c2)c2ccc(C(C)C)cc2c1=O ; strain or isolate: 41/56110 ; cells: HELA-OHIO ; read by: cytopathic effect ; result: 0.034 µg/mL
CSc1nsc(-c2ccc(OCCCOc3ccc([N+](=O)[O-])cc3)cc2)c1C#N ; strain or isolate: Serotype 85 (group B) ; cells: HELA-OHIO ; read by: cytopathic effect ; result: >1 µM
COC(=O)c1cc(CCCOc2c(C)cc(-c3noc(C)n3)cc2C)on1 ; strain or isolate: Serotype 1B ; cells: HeLa ; read by: cytopathic effect ; result: 0.009 µg/mL
COc1nc2ccc(OCCC3CCN(c4ccc(C)nn4)CC3)cc2s1 ; strain or isolate: Serotype 2 ; cells: MRC-5 ; read by: cytopathic effect ; result: 0.024 µg/mL
Cc1ccc(Cn2cnc3c(N(C)c4ccccc4)nc(C(F)(F)F)nc32)cc1 ; strain or isolate: Serotype 1B ; cells: M-HELA ; read by: plaque count ; result: 1.9 µM
CCOC(=O)c1ccc(OCCOc2ccc(-c3snc(SC)c3C#N)cc2)cc1 ; strain or isolate: Serotype 41 (group B) ; cells: HELA-OHIO ; read by: cytopathic effect ; result: >2 µM
CCOc1cnnc2cc(OCCC3CCN(c4ccc(C)nn4)CC3)ccc12 ; strain or isolate: Serotype 14 ; cells: MRC-5 ; read by: cytopathic effect ; result: 0.2 µg/mL
CN(C)c1nc(C(F)(F)F)nc2c1ncn2Cc1ccc(F)cc1 ; strain or isolate: Serotype 13 ; cells: M-HELA ; read by: plaque count ; result: >8 µM
CCCOc1nc2ccc(OCCC3CCN(c4ccc(C)nn4)CC3)cc2o1 ; strain or isolate: Serotype 2 ; cells: MRC-5 ; read by: cytopathic effect ; result: 0.002 µg/mL
CSc1nsc(-c2ccc(OCCCOc3ccc(C#N)cc3)cc2)c1C#N ; strain or isolate: Serotype 51 (group B) ; cells: HELA-OHIO ; read by: cytopathic effect ; result: >2 µM

3 of the rows above, restated:

SMILES	strain or isolate	cells	read by	result
CCc1nc(-c2cc(C)c(OCCCc3cc(COC)no3)c(C)c2)no1	Serotype 1A	HeLa	cytopathic effect	0.077 µg/mL
CCOc1nc2ccc(OCCC3CCN(c4ccc(C)nn4)CC3)cc2o1	Serotype 2	MRC-5	cytopathic effect	0.003 µg/mL
CSc1nsc(-c2ccc(OCCCOc3ccc([N+](=O)[O-])cc3)cc2)c1C#N	Serotype 85 (group B)	HELA-OHIO	cytopathic effect	>1 µM

Rows are shuffled and stem from different studies.